Assay results taken from paper PMC12017303 (Science Advances, 2025).

Tested on: SARS-CoV-2 Beta variant
Test: Mouse infection model, lung virus titers by plaque assay
Assay type: in vivo
Settings: H-E staining

## CC(C)(C)[C@H](NC(=O)C(F)(F)F)C(=O)N1C[C@H]2[C@@H]([C@H]1C(=O)N[C@H](C#N)C[C@@H]1CCNC1=O)C2(C)C [nirmatrelvir, reference compound]
  mononuclear cell infiltration and respiratory epithelial cell injury in lung: to a minimal extent
